Taken from: PubChem BioAssay AID1259414 (Drosophila RNAi Screening Center, 2018)
The screen tested about 24,000 reagents; shown is a random part of those that have a named target and a result. Of all reagents, about 1,210 (5%) were called active. 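Inactive calls also include excluded dsRNAs with several or no targets, genes unexpressed in JW18, and well A1, regardless of score.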 Entries without a mark were called inactive. Names joined by + are all predicted targets of the reagent.

Aim: 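Genome-wide screen for host control of endosymbiont load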 (primary screen)
Cell system: Drosophila JW18 cells infected with Wolbachia
Reagent: long dsRNA against Drosophila genes, 0.25 µg dsRNA per well of a 384-well plate
Timing: 5 days
Challenge: cells persistently infected with Wolbachia before knock-down; no added drug
Measurement: 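Automated imaging of bacterial rRNA staining divided by host cell count, reported as plate-normalised robust z-score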
Direction: Wolbachia per cell robust z: higher = more Wolbachia per host cell than the plate typical
Active means: 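Active if absolute robust z reaches 1.5 in two or more of three replicates, leaving out multi- or no-target dsRNAs, genes unexpressed in JW18 and A1 wells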

gene | DRSC id | Wolbachia per cell robust z, rep 1 | Wolbachia per cell robust z, rep 2 | Wolbachia per cell robust z, rep 3
Traf-like | DRSC19894 | -0.0278 | -0.885 | -0.777
CG33459 | DRSC05615 | 0.588 | -0.722 | 0.376
Vps35 | DRSC04519 | 0.105 | 0.402 | 0.199
Vps35 | DRSC28790 | 0.0425 | 1.52 | -0.0141
RfC4 | DRSC08691 | -8.96 | -0.453 | 0.0711
RfC4 | DRSC29522 | -1.15 | 0.408 | -1.16
CG9344 | DRSC04541 | -0.494 | 0.246 | 0.468
CG42487 + CG4884 | DRSC40595 | -2.6 | -2.7 | -1.71
Phyhd1 | DRSC14911 | 0.0559 | -2.03 | -0.717
Phyhd1 | DRSC26408 | 0.413 | 0.0588 | -1.23
tko | DRSC18844 | 0.371 | -0.303 | 0.0645
tko | DRSC27125 | 0.384 | 0.727 | 0.843
CG10205 | DRSC05979 | 0.51 | 0.372 | 0.314
CG1640 | DRSC19750 | 0.635 | -7.69 | -0.904
CG6325 | DRSC16020 | 0.472 | -1.53 | 0.341
BomS3 | DRSC21458 | -0.622 | 0.678 | -0.182
BomS3 | DRSC28620 | -0.654 | 0.377 | 1.05
CG33203 | DRSC14876 | -0.295 | -0.235 | -0.0323
CG33203 | DRSC14877 | -0.414 | -6.07 | 0.607
CG33203 | DRSC23428 | 0.727 | -0.569 | 0.209
CG31038 | DRSC15051 | -10.9 | 0.176 | -0.804
CG31038 | DRSC16326 | 0.126 | -3.36 | 0.325
CG31038 | DRSC16327 | 0.332 | -2.18 | -0.792
CG31038 | DRSC25740 | -0.103 | 0.245 | 1.32
CG43351 | DRSC41436 | -0.262 | -0.102 | 0.297
Sam-S | DRSC00758 | 1.45 | 0.451 | 0.729
CAH1 | DRSC29399 | -0.695 | 0.18 | -0.574
SMC2 | DRSC07544 | 0.961 | -2.34 | 0.781
SMC2 | DRSC29763 | -1.48 | 0.014 | -0.549
CG32700 | DRSC17857 | 0.369 | -2.53 | -0.37
CG32700 | DRSC17858 | 0.601 | 0.679 | 0.886
mib1 | DRSC10550 | 0.854 | 1.38 | -0.136
CG7164 | DRSC03018 | 0.845 | 1.1 | 0.869
CG7164 | DRSC28704 | -0.367 | 0.34 | 0.251
Tmem131 | DRSC07154 | -1.13 | 0.987 | 0.703
Vps13D | DRSC09818 | -0.14 | -0.838 | -0.983
Vps13D | DRSC09819 | 0.322 | 0.109 | 0.657
Usp20-33 | DRSC07196 | -2.12 (active) | -7.11 | -0.101
Nipsnap | DRSC20169 | -0.212 | 0.198 | 0.897
loco | DRSC15202 | -0.919 | 0.297 | -5.06
loco | DRSC16989 | -0.191 | 0.254 | 0.514
loco | DRSC27695 | -0.686 | 0.0636 | 1.2
CG34307 | DRSC38659 | 0.489 | 0.367 | 1.93
CG7298 | DRSC10802 | -0.354 | -0.158 | 0.222
Mpv17 | DRSC17198 | 0.732 | 0.337 | -1.25
TwdlG | DRSC12229 | 0.948 | -0.0236 | -7.07
TwdlG | DRSC27678 | 1.01 | 1.01 | 1.3
CG31776 | DRSC00716 | -0.157 | 0.937 | -1.22
BG642163 | DRSC00342 | -1.45 | 0.742 | 0.65
BG642163 | DRSC00343 | 0.346 | 0.607 | 0.592
CG13050 | DRSC09931 | 0.358 | -0.607 | 1.58
Atg8a | DRSC18024 | 0.424 | 0.656 | 0.623
Atg8a | DRSC24298 | 0.427 | -0.539 | 0.661
nonA | DRSC20357 | -3.54 | 0.629 | 0.787
nonA | DRSC27455 | 1.27 | 0.456 | -0.0721
nonA | DRSC41353 | -1.13 | -2.3 | 0.418
CG15916 | DRSC19740 | 0.301 | -2.45 | 0.198
CG32712 | DRSC17820 | 2.8 | -1.01 | -0.964
CG5989 | DRSC10565 | -1.06 | -3.61 | -0.579
Rab1 | DRSC16808 | 0.982 | 0.311 | 0.954
Rab1 | DRSC29851 | -0.0887 | 0.486 | 3.24
NT5E-2 | DRSC06893 | 0.105 | 0.0619 | 0.059
CG14621 | DRSC20635 | 0.555 | 0.411 | 0.708
CG14621 | DRSC27094 | 0.0372 | 0.24 | -0.651
CG45067 + CG45066 | DRSC08414 | -0.726 | 0.431 | -0.659
CG32246 | DRSC08115 | -0.0474 | 0.304 | 0.255
CG32246 | DRSC24361 | -0.0448 | 0.0938 | 0.821
Det | DRSC14489 | 0.414 (active) | 1.61 | 1.6

Looked up above.
Under “Wolbachia per cell robust z, rep 2”, Vps13D [DRSC09819] has 0.109
Under “Wolbachia per cell robust z, rep 1”, CG13050 [DRSC09931] shows 0.358
Result for Usp20-33 [DRSC07196] in “Wolbachia per cell robust z, rep 2”: -7.11 (active)
CG32700 [DRSC17857], Wolbachia per cell robust z, rep 3: -0.37
CG31038 [DRSC25740], Wolbachia per cell robust z, rep 3 = 1.32
Result of RfC4 [DRSC08691] under “Wolbachia per cell robust z, rep 3”: 0.0711
